## RC index of single-base changes in HIV-1 Nef

From the data files of Al-Mawsawi et al. 2014, doi:10.1186/s12977-014-0124-6.

Protein: Nef of HIV-1 NL4-3, numbered from its first residue.
From base 9076 on, changes also alter the 3' U3.
Effects on overlapping genes or RNA elements are not listed.

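Random point mutant libraries of HIV-1 NL4-3, one for each of seven fragments, were passaged in CEM T lymphocytes. The RC index is the frequency of a change after passage round 2 divided by its frequency in the plasmid library.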

Values are the RC index; higher means better tolerated. The authors read about 0.1 or less as lethal, 0.1-0.2 as attenuated and 0.2 or more as tolerated. Substitutions are written as wild-type residue, site number, new residue. Input reads are the counts in the plasmid library.

substitution	base	input reads	RC
K152R	A9241G	239	0.916
V153I	G9243A	388	1.18
V153L	G9243C	151	0.578
V153E	T9244A	285	1.46
E155V	A9250T	156	0.459
E155D	G9251T	280	0.768
A156T	G9252A	425	1.11
A156V	C9253T	368	0.910
N157H	A9255C	379	0.884
N157S	A9256G	303	0.976
N157I	A9256T	395	1.10
K158R	A9259G	312	0.973
K158I	A9259T	406	0.677
K158N	A9260C	52	0.501
K158N	A9260T	360	0.938
G159V	G9262T	89	0.791
E160Q	G9264C	35	0.335
E160G	A9265G	355	1.49
E160D	G9266C	46	0.170
N161D	A9267G	253	0.505
N161T	A9268C	40	1.47
N161S	A9268G	245	0.723
S163R	A9273C	63	0.848
S163G	A9273G	284	0.578
S163N	G9274A	346	1.28
L164M	T9276A	574	0.767
L164V	T9276G	111	0.387
L165I	T9279A	483	0.809
L165S	T9280C	264	0.666
H166L	A9283T	320	0.965
H166Q	C9284A	74	0.916
P167A	C9285G	78	0.735
V168L	G9288C	76	0.652
V168E	T9289A	442	0.752
S169C	A9291T	363	0.754
S169I	G9292T	112	0.663
S169R	C9293A	128	0.967
S169R	C9293G	61	0.470
L170Q	T9295A	343	0.745
L170P	T9295C	343	0.768
H171L	A9298T	434	0.553
H171Q	T9299A	277	0.814
G172E	G9301A	247	1.01
G172A	G9301C	82	0.270
M173V	A9303G	423	0.721
M173T	T9304C	285	0.585
M173I	G9305T	316	0.718
D174N	G9306A	207	0.705
D174Y	G9306T	205	0.699
D174G	A9307G	343	0.403
D174V	A9307T	241	0.633
D175V	A9310T	259	0.559
D175E	C9311G	110	0.972
P176T	C9312A	283	0.760
P176A	C9312G	57	0.160
P176H	C9313A	386	0.743
E177K	G9315A	231	1.40
E177Q	G9315C	34	0.422
E177A	A9316C	55	0.427
E177G	A9316G	352	0.703
E177D	G9317T	159	0.336
R178I	G9319T	260	0.717
R178S	A9320T	340	0.816
E179K	G9321A	185	1.47
E179V	A9322T	265	0.226
V180M	G9324A	462	1.12
V180L	G9324C	140	0.652
V180L	G9324T	96	0.855
V180E	T9325A	261	1.12
L181I	T9327A	318	0.492
L181V	T9327G	84	1.95
E182Q	G9330C	72	0.688
E182G	A9331G	310	0.307
W183R	T9333A	386	0.542
W183L	G9334T	314	0.419
R184G	A9336G	484	0.642
R184W	A9336T	308	0.598
F185I	T9339A	279	0.611
F185S	T9340C	537	0.544
F185L	T9341A	303	0.418
F185L	T9341G	64	0.449
D186N	G9342A	318	1.09
D186Y	G9342T	159	0.414
D186V	A9343T	415	0.383
D186E	C9344G	198	0.554
S187T	G9346C	85	0.437
S187I	G9346T	263	0.995
S187R	C9347G	106	0.271
R188G	C9348G	40	1.35
R188P	G9349C	77	0.987
R188L	G9349T	175	0.840
L189P	T9352C	343	0.606
A190T	G9354A	486	0.768
A190P	G9354C	47	0.862
A190S	G9354T	191	0.628
A190V	C9355T	439	0.439
F191L	T9357C	276	0.838
F191S	T9358C	396	0.776
F191L	T9359A	638	0.392
F191L	T9359G	32	0.106
H192Y	C9360T	200	0.794
H192R	A9361G	445	0.934
H192L	A9361T	261	0.783
H192Q	T9362G	31	1.31
H193N	C9363A	187	0.271
H193Y	C9363T	307	0.946
H193L	A9364T	469	0.292
H193Q	C9365G	127	0.505
V194L	G9366T	108	0.688
V194A	T9367C	382	0.805
A195D	C9370A	98	0.603
E197K	G9375A	164	0.824
E197G	A9376G	240	0.549
E197V	A9376T	194	0.757
E197D	G9377C	147	0.747
L198M	C9378A	159	0.818
H199N	C9381A	54	0.344
H199R	A9382G	440	0.461
P200T	C9384A	192	0.589
P200Q	C9385A	488	0.581
P200R	C9385G	54	0.188
E201Q	G9387C	96	0.686
E201D	G9389C	144	0.575
Y202N	T9390A	103	1.30
Y202C	A9391G	228	0.941
F203S	T9394C	425	0.632
F203C	T9394G	36	0.610
F203L	C9395G	40	0.549
K204Q	A9396C	59	0.973
N205D	A9399G	302	0.844
N205Y	A9399T	209	0.582
N205K	C9401A	106	0.828
N205K	C9401G	130	0.727
C206Y	G9403A	498	1.20
C206S	G9403C	95	0.231
C206W	C9404G	45	0.600

The opening 13 entries, copied out:

substitution,base,input reads,RC
K152R,A9241G,239,0.916
V153I,G9243A,388,1.18
V153L,G9243C,151,0.578
V153E,T9244A,285,1.46
E155V,A9250T,156,0.459
E155D,G9251T,280,0.768
A156T,G9252A,425,1.11
A156V,C9253T,368,0.910
N157H,A9255C,379,0.884
N157S,A9256G,303,0.976
N157I,A9256T,395,1.10
K158R,A9259G,312,0.973
K158I,A9259T,406,0.677

An index over 1, which the authors read as above wild type, was rare (1.9% of all changes in the genome). Base changes are numbered along pNL4-3. Clones carried about five changes per kilobase, which can drag down the index of neutral changes.